System: HIV
Assay type: cell-based
Conditions: ratio CC50 / EC50

Row | Molecule | SI
1 | C#CCOc1c2c(c(-c3ccc4c(c3)OCO4)c3cc(OC)c(OC)cc13)C(=O)OC2 [Compound 17c] | 186.9
2 | COc1cc2c(OC(=O)c3ccc(F)cc3)c3c(c(-c4ccc5c(c4)OCO5)c2cc1OC)C(=O)OC3 [Compound 17g] | 16.6
3 | COc1cc2c(OC3OC[C@@H](OC(C)=O)[C@H](OC(C)=O)[C@H]3OC(C)=O)c3c(c(-c4ccc5c(c4)OCO5)c2cc1OC)C(=O)OC3 (stereo partly drawn) [Compound 25a, Peracetylated 7β-D-xylosyloxydiphyllin] | 438.6
4 | COc1cc2c(OCC(=O)O)c3c(c(-c4ccc5c(c4)OCO5)c2cc1OC)C(=O)OC3 [Compound 13] | >4.9
5 | COc1cc2c(OC3O[C@@H](C)[C@@H](O)[C@@H](O)[C@@H]3O)c3c(c(-c4ccc5c(c4)OCO5)c2cc1OC)C(=O)OC3 (stereo partly drawn) [Compound 26d, 7-O-β-L-fucopyranosyldiphyllin] | > 426.1
6 | COc1cc2c(Oc3ncccn3)c3c(c(-c4ccc5c(c4)OCO5)c2cc1OC)C(=O)OC3 [Compound 17d] | 38.4
7 | CCc1c2c(c(-c3ccc4c(c3)OCO4)c3cc(OC)c(OC)cc13)C(=O)OC2 [Compound 19g] | 10.2
8 | COc1cc2c(C3=CCN(C(=O)OC(C)(C)C)CC3)c3c(c(-c4ccc5c(c4)OCO5)c2cc1OC)C(=O)OC3 [Compound 19l] | 55.1
9 | COc1cc2c(N=C(c3ccccc3)c3ccccc3)c3c(c(-c4ccc5c(c4)OCO5)c2cc1OC)C(=O)OC3 [Compound 19p] | >36
10 | COc1cc2c(Nc3ccc(C(F)(F)F)cc3)c3c(c(-c4ccc5c(c4)OCO5)c2cc1OC)C(=O)OC3 [Compound 19e] | >45
11 | COc1cc2c(NC(C)=O)c3c(c(-c4ccc5c(c4)OCO5)c2cc1OC)C(=O)OC3 [Compound 24] | >133
12 | CCOC(=O)COc1c2c(c(-c3ccc4c(c3)OCO4)c3cc(OC)c(OC)cc13)C(=O)OC2 [Compound 12b] | >129
13 | COc1cc2c(OCC(N)=O)c3c(c(-c4ccc5c(c4)OCO5)c2cc1OC)C(=O)OC3 [Compound 14a] | 5.3
14 | COc1cc2c(OC3O[C@H](C)[C@@H](OC(C)=O)[C@H](O)[C@H]3O)c3c(c(-c4ccc5c(c4)OCO5)c2cc1OC)C(=O)OC3 (stereo partly drawn) [Compound 27ba, 4″-Acetyl-7-O-β-D-patentiflorin A] | 137.3
15 | COc1cc2c(OC3O[C@H](C)[C@@H](O)[C@H](OC(C)=O)[C@H]3OC(C)=O)c3c(c(-c4ccc5c(c4)OCO5)c2cc1OC)C(=O)OC3 (stereo partly drawn) [Compound 27bf, 2″,3″-Diacetyl-7-O-β-D-patentiflorin A] | 263.9
16 | C=CCOC(=O)O[C@@H]1COC(Oc2c3c(c(-c4ccc5c(c4)OCO5)c4cc(OC)c(OC)cc24)C(=O)OC3)[C@H](OC(=O)OCC=C)[C@H]1OC(C)=O (stereo partly drawn) [Compound 28ab3, 2″,4″-O-diallyl oxycarbonyl-3″-acetyl-7-O-β-D-xylosyldiphyllin] | 16.8
17 | COc1cc2c(OC3O[C@H](C)[C@@H](O)[C@H](OC(=O)c4cc([N+](=O)[O-])cc([N+](=O)[O-])c4)[C@H]3O)c3c(c(-c4ccc5c(c4)OCO5)c2cc1OC)C(=O)OC3 (stereo partly drawn) [Compound 31b, 3″-O-(3,5-dinitrobenzoyl)-7-O-β-D-patentiflorin A] | 51.0
18 | COc1ccc(C(=O)Oc2c3c(c(-c4ccc5c(c4)OCO5)c4cc(OC)c(OC)cc24)C(=O)OC3)cc1 [Compound 17h] | 15.1
19 | COc1cc2c(C#C[Si](C)(C)C)c3c(c(-c4ccc5c(c4)OCO5)c2cc1OC)C(=O)OC3 [Compound 19o] | 34.2
20 | COc1cc2c(N)c3c(c(-c4ccc5c(c4)OCO5)c2cc1OC)C(=O)OC3 [Compound 22] | 222.2
21 | COc1cc2c(Nc3ccccc3)c3c(c(-c4ccc5c(c4)OCO5)c2cc1OC)C(=O)OC3 [Compound 19f] | 4.6
22 | 2″-Acetyl-7-O-β-D-patentiflorin A [Compound 27bc] | 1472.4
23 | COc1cc2c(OC3O[C@H](CO)[C@H](O)[C@H](O)[C@H]3O)c3c(c(-c4ccc5c(c4)OCO5)c2cc1OC)C(=O)OC3 (stereo partly drawn) [Compound 26g, 7-O-β-D-galactopyranosyldiphyllin] | 5.5
24 | C=CCOC(=O)O[C@H]1[C@H](O)[C@@H](OC(=O)OCC=C)C(Oc2c3c(c(-c4ccc5c(c4)OCO5)c4cc(OC)c(OC)cc24)C(=O)OC3)O[C@@H]1C (stereo partly drawn) [Compound 29b, 2″,4″-O-diallyl oxycarbonyl-7-O-β-D-patentiflorin A] | 40.2
25 | COc1cc2c(C)c3c(c(-c4ccc5c(c4)OCO5)c2cc1OC)C(=O)OC3 [Compound 19b] | 12.7
26 | COc1cc2c(C(C)=O)c3c(c(-c4ccc5c(c4)OCO5)c2cc1OC)C(=O)OC3 [Compound 19n] | 26.8
27 | COc1cc2c(OC)c3c(c(-c4ccc5c(c4)OCO5)c2cc1OC)C(=O)OC3 [Compound 17b] | 815.3

Row | Molecule | SI
28 | COc1cc2c(-c3ccc4c(c3)OCO4)c3c(c(C(C)O)c2cc1OC)COC3=O (centres unmarked) [Compound 20] | 17.9
29 | COc1cc2cc3c(c(-c4ccc5c(c4)OCO5)c2cc1OC)C(=O)OC3 [Compound 19d] | 237.4
30 | COc1cc2c(OS(=O)(=O)C(F)(F)F)c3c(c(-c4ccc5c(c4)OCO5)c2cc1OC)C(=O)OC3 [Compound 18] | 2.8
31 | CNC(=O)COc1c2c(c(-c3ccc4c(c3)OCO4)c3cc(OC)c(OC)cc13)C(=O)OC2 [Compound 14b] | 7.6
32 | COc1cc2c(OCC#N)c3c(c(-c4ccc5c(c4)OCO5)c2cc1OC)C(=O)OC3 [Compound 17a] | 627.9
33 | COc1cc2c(OCC(=O)OC(C)(C)C)c3c(c(-c4ccc5c(c4)OCO5)c2cc1OC)C(=O)OC3 [Compound 12a] | >19
34 | C=CCOC(=O)O[C@H]1C(Oc2c3c(c(-c4ccc5c(c4)OCO5)c4cc(OC)c(OC)cc24)C(=O)OC3)OC[C@@H](O)[C@@H]1OC(C)=O (stereo partly drawn) [Compound 28ab2, 2″-O-allyl oxycarbonyl-3″-acetyl-7-O-β-D-xylosyldiphyllin] | 167.7
35 | COc1cc2c(OC3O[C@H](C)[C@@H](O)[C@H](OC(C)=O)[C@H]3O)c3c(c(-c4ccc5c(c4)OCO5)c2cc1OC)C(=O)OC3 (stereo partly drawn) [Compound 27bb, 3″-Acetyl-7-O-β-D-patentiflorin A] | 584.1
36 | COc1cc2c(OC(=O)C3CCCC3)c3c(c(-c4ccc5c(c4)OCO5)c2cc1OC)C(=O)OC3 [Compound 17f] | 9.2
37 | COc1cc2c(OC3O[C@H](C)[C@@H](O)[C@H](O)[C@H]3O)c3c(c(-c4ccc5c(c4)OCO5)c2cc1OC)C(=O)OC3 (some centres unmarked) [Compound 26b, Patentiflorin A] | 16.4
38 | COc1cc2c(OC3O[C@H](C)[C@@H](O)[C@H](OC(=O)CC#N)[C@H]3O)c3c(c(-c4ccc5c(c4)OCO5)c2cc1OC)C(=O)OC3 (stereo partly drawn) [Compound 31j, 3″-O-cyanoacetyl-7-O-β-D-patentiflorin A] | 7.3
39 | COc1cc2c(-c3ccc4c(c3)OCO4)c3c(c(N4CCOCC4)c2cc1OC)COC3=O [Compound 19m] | 16.9
40 | CCCC(=O)O[C@H]1[C@H](O)[C@@H](C)OC(Oc2c3c(c(-c4ccc5c(c4)OCO5)c4cc(OC)c(OC)cc24)C(=O)OC3)[C@@H]1O (stereo partly drawn) [Compound 31c, 3″-O-butyryl-7-O-β-D-patentiflorin A] | 477.0
41 | C#Cc1c2c(c(-c3ccc4c(c3)OCO4)c3cc(OC)c(OC)cc13)C(=O)OC2 [Compound 21] | 11.7
42 | COc1cc2c(-c3cccnc3)c3c(c(-c4ccc5c(c4)OCO5)c2cc1OC)C(=O)OC3 [Compound 19i] | 43.7
43 | COc1cc2c(-c3ccncc3)c3c(c(-c4ccc5c(c4)OCO5)c2cc1OC)C(=O)OC3 [Compound 19c] | 18.8
44 | COc1cc2c(B3OC(C)(C)C(C)(C)O3)c3c(c(-c4ccc5c(c4)OCO5)c2cc1OC)C(=O)OC3 [Compound 19a] | 136.0
45 | COc1cc2c(-c3cccs3)c3c(c(-c4ccc5c(c4)OCO5)c2cc1OC)C(=O)OC3 [Compound 19h] | 8.9
46 | COc1cc2c(OCC(C)(C)O)c3c(c(-c4ccc5c(c4)OCO5)c2cc1OC)C(=O)OC3 [Compound 15b] | 85.7
47 | COc1cc2c(O)c3c(c(-c4ccc5c(c4)OCO5)c2cc1OC)C(=O)OC3 [Compound 5, diphyllin] | 97.3
48 | COc1cc2c(OC3O[C@H](C)[C@@H](OC(C)=O)[C@H](O)[C@H]3OC(C)=O)c3c(c(-c4ccc5c(c4)OCO5)c2cc1OC)C(=O)OC3 (stereo partly drawn) [Compound 27be, 2″,4″-Diacetyl-7-O-β-D-patentiflorin A] | 852
49 | COc1cc2c(OCCO)c3c(c(-c4ccc5c(c4)OCO5)c2cc1OC)C(=O)OC3 [Compound 15a] | 27.3
50 | COc1cc2c(OC3O[C@H](C)[C@@H](O)[C@H](OC(=O)c4ccccc4)[C@H]3O)c3c(c(-c4ccc5c(c4)OCO5)c2cc1OC)C(=O)OC3 (stereo partly drawn) [Compound 31d, 3″-O-benzoyl-7-O-β-D-patentiflorin A] | >74
51 | COc1cc2c(OC3O[C@H](C)[C@@H](O)[C@H](OC(=O)c4ccc(N(C)C)cc4)[C@H]3O)c3c(c(-c4ccc5c(c4)OCO5)c2cc1OC)C(=O)OC3 (stereo partly drawn) [Compound 31e, 3″-O-p-dimethylaminobenzoyl-7-O-β-D-patentiflorin A] | 7.3
52 | COc1cc2c(OC3O[C@H](C)[C@@H](OC(C)=O)[C@H](OC(C)=O)[C@H]3O)c3c(c(-c4ccc5c(c4)OCO5)c2cc1OC)C(=O)OC3 (stereo partly drawn) [Compound 27bd, 3″, 4″-Diacetyl-7-O-β-D-patentiflorin A] | 65.9
53 | COc1cc2c(-c3ccco3)c3c(c(-c4ccc5c(c4)OCO5)c2cc1OC)C(=O)OC3 [Compound 19k] | 17.7

Source: patent US11638713B2, “Patentiflorin A analogs as antiviral agents” (priority 2019, dated 2023)
